Measurements from PMC11604653, “Adjuvants to the S1-subunit of the SARS-CoV-2 spike protein vaccine improve antibody and T cell responses and surrogate neutralization in mice” (2024).

Biological target: ectodomain of SARS-CoV-2 spike protein (SARS-CoV-2)
Test: SEC

ectodomain of SARS-CoV-2 spike protein (domain or fragment)
stoichiometry N: 3
